{"source": "patent US11466029B2", "about": "“Compounds useful to treat influenza virus infections” (Nanjing Zhengxiang Pharmaceuticals Co., Ltd., priority 2019, dated 2022)", "origin": "cited, not measured here", "conditions": "rat, in vivo; cited from earlier work", "data": [{"compound": "O=C1c2c(O)c(=O)ccn2N([C@@H]2c3ccccc3SCc3c2ccc(F)c3F)[C@@H]2COCCN12", "note": "[Baloxavir acid, reference compound]", "values": [{"measurement": "oral bioavailability of baloxavir", "result": 0.69, "unit": "%"}]}]}
